# Measured values as given in US12708649B2, “Compositions and methods for improving skin health and for the treatment and prevention of diseases, disorders and conditions associated with fungi and other pathogenic microbes” (priority 2020, dated 2026).
# Values joined by “and” are separate entries in the source; they are usually repeats but may differ in a detail not shown here. Identical values can stand only once. Where a SMILES comes first, the peptide text is derived from it.
# Test system: Alcaligenes faecalis DB05646 / Malassezia furfur cultures
# Test: Metabolite profile by LC-MS: DB05646 single culture and co-culture with M. furfur
# Details: not given
Compound,Fold of change Coculture vs DB05646 [fold],Fold of change Coculture vs M.furfur [fold],Fold of change Coculture vs Media [fold],Fold of change DB05646 vs Media [fold],Fold of change M.furfur vs Media [fold]
"CN1C2CCC1[C@@H](C(=O)O)[C@@H](O)C2 (stereo partly drawn) [(2R,3S)-3-Hydroxy-8-methyl-8-azabicyclo[3.2.1]octane-2-carboxylic acid]",0.2,53.1,45.7,216.8,0.9
OC1CC2CCC(C1)N2 (centres unmarked) [8-Azabicyclo[3.2.1]octan-3-ol],0.7,1.0,395.0,551.2,399.0
C=CCC1(C(C)C)C(=O)NC(=O)NC1=O [Aprobarbital],0.3,11.7,11.2,39.0,1.0
Cl.N#CC1(O)CN2CCC1CC2 (centres unmarked) [3-hydroxyquinuclidine-3-carbonitrile hydrochloride],0.5,45.7,11.7,21.9,0.3

# Same assay, conditions: DB05646-M. furfur co-culture
Compound,Fold of change Coculture vs DB05646,Fold of change Coculture vs M.furfur,Fold of change Coculture vs Media [fold]
"O=C(O)C1(O)C[C@@H](O)C(O)[C@H](O)C1 (stereo partly drawn) [(1S,3R,4s)-1,3,4,5-Tetrahydroxycyclohexanecarboxylic acid]",0.9 fold,16.3 fold,52.5
O=C1CCCC(C(=O)O)N1 (centres unmarked) [6-Oxo-pipecolinic acid],0.9 fold and 0.8 fold,2.3 fold and 2.7 fold and 1.8 fold,–
CC1NCCS1 (centres unmarked) [2-Methylthiazolidine],0.8 fold,2.6 fold,75.1
CC(=O)N[C@@H](CC(=O)O)C(=O)O [N-Acetylaspartic acid],0.9 fold,8.9 fold,12.7
CCc1ncccc1C(N)=O [2-Ethylnicotinamide],0.6 fold,56.4 fold,49.4
CC(=O)N[C@@H](CCCN)C(=O)O [N-Acetylornithine],1.1 fold,4.7 fold,23.7
CC(=O)NCCCCNCCCN [N8-Acetylspermidine],0.2 fold,0.8 fold,3.1
O=c1ccn([C@@H]2O[C@H](CO)[C@@H](O)[C@H]2O)c(=O)[nH]1 [Uridine],0.1 fold,0.1 fold,1.9
"CCC(C)C1C=C(C(O)CC(O)C(O)C(=O)O)C(C(C)CC)C1 (centres unmarked) [4-Deoxy-5-C-(3,5-di-sec-butyl-1-cyclopenten-1-yl)pentonic acid]",3.7 fold,7.5 fold,0.1
CCCCC1(COC(=O)CCC(=O)O)C(=O)N(c2ccccc2)N(c2ccccc2)C1=O [Suxibuzone],68.4 fold,0.4 fold,74.2
NCCc1c[nH]cn1 [Histamine],0.9 fold,2.2 fold,193.9
N=C(N)NCCCC(=O)O [4-Guanidinobutyric acid],0.7 fold,8.3 fold,10.6
"Cc1nc(C)c(C)nc1C [2,3,5,6-Tetramethylpyrazine]",0.4 fold,16.2 fold,14.0
CCOC(C)OC(C)C(=O)O (centres unmarked) [2-(1-Ethoxyethoxy)propanoic acid],0.9 fold,22.9 fold,416.4
CC(C)[C@H](N)C(=O)N1CC(O)C[C@H]1C(=O)O (some centres unmarked) [Valyl-4-hydroxyproline],0.8 fold,5.4 fold,4.7
CC(C)C[C@H](N)C(=O)N[C@H](C(=O)O)C(C)C [Leu-Val] (H-Leu-Val-OH),0.5 fold,9.8 fold,8.6
O=C(O)C1CCC=N1 (centres unmarked) [1-pyrroline-5-carboxylic acid],0.7 fold,16.9 fold,128.9
CC[C@@H]1C(=O)OC[C@@H]1Cc1cncn1C [Pilocarpine],0.5 fold,139.1 fold,106.9
CC(C)C[C@H](NC(=O)[C@@H](N)CO)C(=O)O [Ser-Leu] (H-Ser-Leu-OH),0.4 fold,3.7 fold,6.9
CC(=O)NCCCCN [(1Z)-N-(4-Aminobutyl)ethanimidic acid],0.6 fold,0.9 fold,3.3
C[C@H](O)c1nc(=O)c2ccccc2[nH]1 [2-[(1S)-1-Hydroxyethyl]-4(1H)-quinazolinone],0.8 fold,0.9 fold,376.8
CCOC(=O)CC(C)=O [Ethyl acetoacetate],0.8 fold,12.5 fold,125.1
CC(=O)N[C@@H](CCC(=O)O)C(=O)O [N-Acetylglutamic acid],0.7 fold,1.4 fold,12.6
CCC(=O)OC(C)C(=O)SC (centres unmarked) [METHYLTHIO 2-(PROPIONYLOXY) PROPIONATE],0.8 fold,13.7 fold,141.3

# Same assay, conditions: DB05646 single culture, Media 22, 48 hours
row,Compound,Fold of change DB05646 vs Media [fold]
1,"O=C(O)C1(O)C[C@@H](O)C(O)[C@H](O)C1 (stereo partly drawn) [(1S,3R,4s)-1,3,4,5-Tetrahydroxycyclohexanecarboxylic acid]",61.3
2,CC1NCCS1 (centres unmarked) [2-Methylthiazolidine],89.0
3,CC(=O)N[C@@H](CC(=O)O)C(=O)O [N-Acetylaspartic acid],13.6
4,CCc1ncccc1C(N)=O [2-Ethylnicotinamide],81.3
5,CC(=O)N[C@@H](CCCN)C(=O)O [N-Acetylornithine],21.0
6,CC(=O)NCCCCNCCCN [N8-Acetylspermidine],16.8
7,O=c1ccn([C@@H]2O[C@H](CO)[C@@H](O)[C@H]2O)c(=O)[nH]1 [Uridine],32.0
8,"CCC(C)C1C=C(C(O)CC(O)C(O)C(=O)O)C(C(C)CC)C1 (centres unmarked) [4-Deoxy-5-C-(3,5-di-sec-butyl-1-cyclopenten-1-yl)pentonic acid]",0.0
9,CCCCC1(COC(=O)CCC(=O)O)C(=O)N(c2ccccc2)N(c2ccccc2)C1=O [Suxibuzone],1.1
10,NCCc1c[nH]cn1 [Histamine],227.9
11,N=C(N)NCCCC(=O)O [4-Guanidinobutyric acid],15.8
12,"Cc1nc(C)c(C)nc1C [2,3,5,6-Tetramethylpyrazine]",31.4
13,CCOC(C)OC(C)C(=O)O (centres unmarked) [2-(1-Ethoxyethoxy)propanoic acid],462.0
14,CC(C)[C@H](N)C(=O)N1CC(O)C[C@H]1C(=O)O (some centres unmarked) [Valyl-4-hydroxyproline],5.8
15,CC(C)C[C@H](N)C(=O)N[C@H](C(=O)O)C(C)C [Leu-Val] (H-Leu-Val-OH),16.2
16,O=C(O)C1CCC=N1 (centres unmarked) [1-pyrroline-5-carboxylic acid],191.4
17,CC[C@@H]1C(=O)OC[C@@H]1Cc1cncn1C [Pilocarpine],214.5
18,CC(C)C[C@H](NC(=O)[C@@H](N)CO)C(=O)O [Ser-Leu] (H-Ser-Leu-OH),17.6
19,CC(=O)NCCCCN [(1Z)-N-(4-Aminobutyl)ethanimidic acid],5.6
20,C[C@H](O)c1nc(=O)c2ccccc2[nH]1 [2-[(1S)-1-Hydroxyethyl]-4(1H)-quinazolinone],479.8
21,CCOC(=O)CC(C)=O [Ethyl acetoacetate],164.8
22,CC(=O)N[C@@H](CCC(=O)O)C(=O)O [N-Acetylglutamic acid],17.6
23,CCC(=O)OC(C)C(=O)SC (centres unmarked) [METHYLTHIO 2-(PROPIONYLOXY) PROPIONATE],175.0

# Same assay, conditions: M. furfur single culture
row,Compound,Fold of change M.furfur vs Media [fold]
1,"O=C(O)C1(O)C[C@@H](O)C(O)[C@H](O)C1 (stereo partly drawn) [(1S,3R,4s)-1,3,4,5-Tetrahydroxycyclohexanecarboxylic acid]",3.2
2,CC1NCCS1 (centres unmarked) [2-Methylthiazolidine],28.6
3,CC(=O)N[C@@H](CC(=O)O)C(=O)O [N-Acetylaspartic acid],1.4
4,CCc1ncccc1C(N)=O [2-Ethylnicotinamide],0.9
5,CC(=O)N[C@@H](CCCN)C(=O)O [N-Acetylornithine],5.0
6,CC(=O)NCCCCNCCCN [N8-Acetylspermidine],4.0
7,O=c1ccn([C@@H]2O[C@H](CO)[C@@H](O)[C@H]2O)c(=O)[nH]1 [Uridine],26.1
8,"CCC(C)C1C=C(C(O)CC(O)C(O)C(=O)O)C(C(C)CC)C1 (centres unmarked) [4-Deoxy-5-C-(3,5-di-sec-butyl-1-cyclopenten-1-yl)pentonic acid]",0.0
9,CCCCC1(COC(=O)CCC(=O)O)C(=O)N(c2ccccc2)N(c2ccccc2)C1=O [Suxibuzone],167.0
10,NCCc1c[nH]cn1 [Histamine],87.4
11,N=C(N)NCCCC(=O)O [4-Guanidinobutyric acid],1.3
12,"Cc1nc(C)c(C)nc1C [2,3,5,6-Tetramethylpyrazine]",0.9
13,CCOC(C)OC(C)C(=O)O (centres unmarked) [2-(1-Ethoxyethoxy)propanoic acid],18.2
14,CC(C)[C@H](N)C(=O)N1CC(O)C[C@H]1C(=O)O (some centres unmarked) [Valyl-4-hydroxyproline],0.9
15,CC(C)C[C@H](N)C(=O)N[C@H](C(=O)O)C(C)C [Leu-Val] (H-Leu-Val-OH),0.9
16,O=C(O)C1CCC=N1 (centres unmarked) [1-pyrroline-5-carboxylic acid],7.6
17,CC[C@@H]1C(=O)OC[C@@H]1Cc1cncn1C [Pilocarpine],0.8
18,CC(C)C[C@H](NC(=O)[C@@H](N)CO)C(=O)O [Ser-Leu] (H-Ser-Leu-OH),1.9
19,CC(=O)NCCCCN [(1Z)-N-(4-Aminobutyl)ethanimidic acid],3.7
20,C[C@H](O)c1nc(=O)c2ccccc2[nH]1 [2-[(1S)-1-Hydroxyethyl]-4(1H)-quinazolinone],412.0
21,CCOC(=O)CC(C)=O [Ethyl acetoacetate],10.0
22,CC(=O)N[C@@H](CCC(=O)O)C(=O)O [N-Acetylglutamic acid],9.2
23,CCC(=O)OC(C)C(=O)SC (centres unmarked) [METHYLTHIO 2-(PROPIONYLOXY) PROPIONATE],10.3
